These results are taken from patent US20220089695A1 (NEW YORK UNIVERSITY, published 2022).

B1: Dendritic cell-specific intercellular adhesion molecule-3-grabbing nonintegrin expressed on cells (receptor)
chain: MSDSKEPRLQQLGLLEEEQLRGLGFRQTRGYKSLAGCLGHGPLVLQLLSFTLLAGLLVQVSKVPSSISQEQSRQDAIYQNLTQLKAAVGELSEKSKLQEIYQELTQLKAAVGELPEKSKLQEIYQELTRLKAAVGELPEKSKLQEIYQELTWLKAAVGELPEKSKMQEIYQELTRLKAAVGELPEKSKQQEIYQELTRLKAAVGELPEKSKQQEIYQELTRLKAAVGELPEKSKQQEIYQELTQLKAAVERLCHPCPWEWTFFQGNCYFMSNSQRNWHDSITACKEVGAQLVVIKSAEEQNFLQLQSSRSNRFTWMGLSDLNQEGTWQWVDGSPLLPSFKQYWNRGEPNNVGEEDCAEFSGNGWNDDKCNLAKFWICKKSAASCSRDEEQFLSPAPATPNPPPA
notes: whole, on cells; also called DC-SIGN; CD209
B2: Liver/lymph node-specific intercellular adhesion molecule-3-grabbing integrin expressed on cells (receptor)
chain: MSDSKEPRVQQLGLLEEDPTTSGIRLFPRDFQFQQIHGHKSSTGCLGHGALVLQLLSFMLLAGVLVAILVQVSKVPSSLSQEQSEQDAIYQNLTQLKAAVGELSEKSKLQEIYQELTQLKAAVGELPEKSKLQEIYQELTRLKAAVGELPEKSKLQEIYQELTRLKAAVGELPEKSKLQEIYQELTRLKAAVGELPEKSKLQEIYQELTELKAAVGELPEKSKLQEIYQELTQLKAAVGELPDQSKQQQIYQELTDLKTAFERLCRHCPKDWTFFQGNCYFMSNSQRNWHDSVTACQEVRAQLVVIKTAEEQNFLQLQTSRSNRFSWMGLSDLNQEGTWQWVDGSPLSPSFQRYWNSGEPNNSGNEDCAEFSGSGWNDNRCDVDNYWICKKPAACFRDE
notes: whole, on cells; also called L-SIGN; CLEC4M
B3: Liver and lymph node sinusoidal endothelial cell C-type lectin expressed on cells (receptor)
chain: MDTTRYSKWGGSSEEVPGGPWGRWVHWSRRPLFLALAVLVTTVLWAVILSILLSKASTERAALLDGHDLLRTNASKQTAALGALKEEVGDCHSCCSGTQAQLQTTRAELGEAQAKLMEQESALRELRERVTQGLAEAGRGREDVRTELFRALEAVRLQNNSCEPCPTSWLSFEGSCYFFSVPKTTWAAAQDHCADASAHLVIVGGLDEQGFLTRNTRGRGYWLGLRAVRHLGKVQGYQWVDGVSLSFSHWNQGEPNDAWGRENCVMMLHTGLWNDAPCDSEKDGWICEKRHNC
notes: whole, on cells; also called LSECtin; CLEC4G

This assay has as its target S1-T323A/S325A.
Take B1: the binding result is recorded as “binds”. The entry for B2 is “binds”; for B3 it is “binds”.
